# Earlier results, collected in patent US5837729A, “Methods for treating and preventing HIV infection using acetaminophen and derivatives thereof” (priority 1996, dated 1998).
# System: HIV
# Settings: background, earlier work of inventor; cited from earlier work
substance,measurement,value
human chorionic gonadotropin: human chorionic gonadotropin,anti-HIV effect / inhibition of HIV replication (in words),anti-HIV effect
